Results of unrelated studies side by side (data: NIAID ChemDB).

Common to all: whole-cell or culture tests; species: Mycobacterium avium complex

Blank or dashed fields: not listed here. ECn is the concentration giving n% inhibition of infection, replication or growth. Rows are shuffled and stem from different studies. MIC50, MIC90 and the like: level of inhibition, or share of isolates inhibited.

Cc1ccc(Sc2ncccn2)cc1 ; strain or isolate: NJ211 ; measure: MIC ; result: >12.8 µg/mL
CO/C(=N\N=C\c1cccc(F)c1)c1ccncc1 ; strain or isolate: 12592 PI ; measure: MIC ; result: >10 µg/mL
CC1(C)N=C(N)N=C(N)N1c1ccc(Cl)cc1 ; strain or isolate: LPR ; measure: MIC ; result: >128 µg/mL
CCc1cc(C(N)=S)ccn1 ; strain or isolate: 31 strains ; measure: EC50 ; read by: broth dilution ; result: >2.5 µg/mL
CO/C(=N\N=C\c1ccc(OC)cc1OC)c1ccncc1 ; strain or isolate: 12592 PI ; measure: MIC ; result: >5 µg/mL
Cc1ccccc1Sc1ncccn1 ; strain or isolate: NJ211 ; measure: MIC ; result: >12.8 µg/mL
CC[C@H]1OC(=O)[C@H](C)[C@@H](O[C@H]2C[C@@](C)(OC)[C@@H](O)[C@H](C)O2)[C@H](C)[C@@H](O[C@@H]2O[C@H](C)C[C@H](N(C)C)[C@H]2O)[C@](C)(OC)C[C@@H](C)C(=O)[C@H](C)[C@@H](O)[C@]1(C)O ; strain or isolate: Isolate 90-0711 ; measure: MIC ; result: 2 µg/mL
C/C(=N\NC(=O)c1ccncc1)c1cccc(Br)c1 ; strain or isolate: 12592 PI ; measure: MIC ; result: >20 µg/mL
CO[C@H]1/C=C/O[C@@]2(C)Oc3c(C)c(O)c4c(O)c(c5c(c4c3C2=O)NC2(CCN(CC(C)C)CC2)N=5)=NC(=O)/C(C)=C\C=C\[C@H](C)[C@H](O)[C@@H](C)[C@@H](O)[C@@H](C)[C@H](OC(C)=O)[C@@H]1C ; strain or isolate: 242-5 ; measure: MBC ; result: 8 µg/mL
CCCCN(C)CNC(=O)c1cnccn1 ; strain or isolate: 101 ; measure: MIC ; result: 128 µg/mL
COc1ccc(/C(C)=N/NC(=O)c2ccncc2)c(OC)c1 ; strain or isolate: 12592 PI ; measure: MIC ; result: >10 µg/mL
CC[C@H]1OC(=O)[C@H](C)[C@@H](OC2C[C@@](C)(OC)[C@@H](O)[C@H](C)O2)[C@H](C)[C@@H](O[C@@H]2O[C@H](C)C[C@H](N(C)C)[C@H]2O)C(C)(O)C[C@@H](C)/C(=N\OCc2ccccc2)[C@H](C)[C@@H](O)[C@]1(C)O ; strain or isolate: 20096 ; measure: MIC ; result: >50 µg/mL
COc1cccc2c1[n+]([O-])c1cccc(O)c1[n+]2[O-] ; strain or isolate: 101 ; measure: MIC ; result: 8 µg/mL
CCCCSc1nc(Cl)nc2nc[nH]c12 ; strain or isolate: NJ211 ; measure: MIC ; result: >12.8 µg/mL
CCCCCCCCO[C@@H]1O[C@H]([C@@H](COCc2ccccc2)O[C@H]2O[C@H](CO)[C@@H](O)[C@@H]2O)[C@H](OCc2ccccc2)[C@H]1OCc1ccccc1 ; strain or isolate: NJ211 ; measure: MIC ; result: >128 µg/mL
N[C@@H]1CONC1=O ; strain or isolate: 155 strains ; measure: EC50 ; read by: agar ; result: >30 µg/mL
COc1ccccc1Sc1ccncc1 ; strain or isolate: NJ211 ; measure: MIC ; result: >12.8 µg/mL
CC[C@H]1OC(=O)[C@H](C)[C@@H](OC2C[C@@](C)(OC)[C@@H](O)[C@H](C)O2)[C@H](C)[C@@H](O[C@@H]2O[C@H](C)C[C@H](N(C)C)[C@H]2O)C(C)(O)C[C@@H](C)/C(=N\OCCN(C)c2ccccc2)[C@H](C)[C@@H](O)[C@]1(C)O ; strain or isolate: 20096 ; measure: MIC ; result: 25 µg/mL
CCCC(=O)O[C@H]1[C@H](C)[C@@H](O[C@@H]2O[C@H](C)C[C@H](N(C)C)[C@H]2O)C(C)(O)C[C@@H](C)/C(=N\OCCCOc2ccccc2)[C@H](C)[C@@H](O)[C@](C)(O)[C@@H](CC)OC(=O)[C@@H]1C ; strain or isolate: 20096 (clarithromycin-resistant) ; measure: MIC ; result: 12.5 µg/mL
CCCCCCCCO/N=C1\[C@H](C)CC(C)(O)[C@H](O[C@@H]2O[C@H](C)C[C@H](N(C)C)[C@H]2O)[C@@H](C)[C@H](OC2C[C@@](C)(OC)[C@@H](O)[C@H](C)O2)[C@@H](C)C(=O)O[C@H](CC)[C@@](C)(O)[C@H](O)[C@H]1C ; strain or isolate: 20039 ; measure: MIC ; result: 3.13 µg/mL
Cc1cccc(Sc2ncccn2)c1 ; strain or isolate: NJ211 ; measure: MIC ; result: >12.8 µg/mL
Nc1ccc(S(=O)(=O)c2ccc(N)cc2)cc1 ; strain or isolate: 101 ; measure: MIC ; result: 16 µg/mL
CC(C)NC(=O)N1CCC(CN=c2cc3n(-c4ccc(Cl)cc4)c4ccccc4nc-3cc2Nc2ccc(Cl)cc2)CC1 ; strain or isolate: 5 strains ; measure: MIC50 ; result: 2 µg/mL
CC[C@H]1OC(=O)[C@H](C)[C@@H](OC2C[C@@](C)(OC)[C@@H](O)[C@H](C)O2)[C@H](C)[C@@H](O[C@@H]2O[C@H](C)C[C@H](N(C)C)[C@H]2O)C(C)(O)C[C@@H](C)/C(=N\OCCC2CCCCC2)[C@H](C)[C@@H](O)[C@]1(C)O ; strain or isolate: 20092 ; measure: MIC ; result: >50 µg/mL
C[C@@H]1CN(c2c(F)c(N)c3c(=O)c(C(=O)O)cn(C4CC4)c3c2F)C[C@H](C)N1 ; strain or isolate: 18 strains ; measure: MIC50 ; result: 1.56 µg/mL
CN(CNC(=O)c1cnccn1)Cc1ccccc1 ; strain or isolate: ATCC49601 ; measure: MIC ; result: 128 µg/mL
O=C(O)c1ccccn1 ; strain or isolate: N-260 ; measure: MIC ; result: 6000 µg/mL
CN1CCN(CNC(=O)c2cnccn2)CC1 ; strain or isolate: 101 ; measure: MIC ; result: >128 µg/mL
COc1ccc(/C(C)=N/NC(=O)c2ccncc2)cc1F ; strain or isolate: 12592 PI ; measure: MIC ; result: >20 µg/mL
CC[C@H]1OC(=O)[C@H](C)[C@@H](O[C@H]2C[C@@](C)(OC)[C@@H](O)[C@H](C)O2)[C@H](C)[C@@H](O[C@@H]2O[C@H](C)C[C@H](N(C)C)[C@H]2O)[C@](C)(OC)C[C@@H](C)C(=O)[C@H](C)[C@@H](O)[C@]1(C)O ; strain or isolate: MO-1 ; measure: MIC ; result: 2 µg/mL
C/C(=N\NC(=O)c1ccncc1)c1cccc(Cl)c1 ; strain or isolate: 12592 PI ; measure: MIC ; result: >20 µg/mL
CC[C@H]1OC(=O)[C@H](C)[C@@H](OC2C[C@@](C)(OC)[C@@H](OC(=O)C(C)C)[C@H](C)O2)[C@H](C)[C@@H](O[C@@H]2O[C@H](C)C[C@H](N(C)C)[C@H]2O)C(C)(O)C[C@@H](C)/C(=N\OCCCOc2ccccc2)[C@H](C)[C@@H](O)[C@]1(C)O ; strain or isolate: 20039 (clarithromycin-susceptible) ; measure: MIC ; result: 0.78 µg/mL
CO[C@H]1/C=C/O[C@@]2(C)Oc3c(C)c(O)c4c(O)c(c5c(c4c3C2=O)NC2(CCN(CC(C)C)CC2)N=5)=NC(=O)/C(C)=C\C=C\[C@H](C)[C@H](O)[C@@H](C)[C@@H](O)[C@@H](C)[C@H](OC(C)=O)[C@@H]1C ; strain or isolate: K ; measure: MIC ; result: 2 µg/mL
CC[C@H]1OC(=O)[C@H](C)[C@@H](OC2C[C@@](C)(OC)[C@@H](O)[C@H](C)O2)[C@H](C)[C@@H](O[C@@H]2O[C@H](C)C[C@H](N(C)C)[C@H]2O)C(C)(O)C[C@@H](C)/C(=N\OCCCCc2ccccc2)[C@H](C)[C@@H](O)[C@]1(C)O ; strain or isolate: 20039 ; measure: MIC ; result: 1.56 µg/mL
CCCCCCCCO[C@@H]1O[C@H]([C@@H](CO)O[C@H]2O[C@H](CO)[C@@H](O)[C@@H]2O)[C@H](O)[C@H]1O ; strain or isolate: NJ3404 ; measure: MIC ; result: >128 µg/mL
CCCCO/N=C1\[C@H](C)CC(C)(O)[C@H](O[C@@H]2O[C@H](C)C[C@H](N(C)C)[C@H]2O)[C@@H](C)[C@H](OC2C[C@@](C)(OC)[C@@H](O)[C@H](C)O2)[C@@H](C)C(=O)O[C@H](CC)[C@@](C)(O)[C@H](O)[C@H]1C ; strain or isolate: 20039 (clarithromycin-susceptible) ; measure: MIC ; result: 0.78 µg/mL
O=C(N1CCC(CN=c2cc3n(-c4ccc(Cl)cc4)c4ccccc4nc-3cc2Nc2ccc(Cl)cc2)CC1)N1CC1 ; strain or isolate: 109 ; measure: MIC ; result: ≥16 µg/mL
CC[C@H]1OC(=O)[C@H](C)[C@@H](OC2C[C@@](C)(OC)[C@@H](O)[C@H](C)O2)[C@H](C)[C@@H](O[C@@H]2O[C@H](C)C[C@H](N(C)C)[C@H]2O)C(C)(O)C[C@@H](C)/C(=N\OCCc2ccccc2)[C@H](C)[C@@H](O)[C@]1(C)O ; strain or isolate: 20039 ; measure: MIC ; result: 1.56 µg/mL
CC[C@H]1OC(=O)[C@H](C)[C@@H](OC2C[C@@](C)(OC)[C@@H](O)[C@H](C)O2)[C@H](C)[C@@H](O[C@@H]2O[C@H](C)C[C@H](N(C)C)[C@H]2O)C(C)(O)C[C@@H](C)/C(=N\OCCSc2ccccc2)[C@H](C)[C@@H](O)[C@]1(C)O ; strain or isolate: 20039 (clarithromycin-susceptible) ; measure: MIC ; result: 1.56 µg/mL
Cc1cc(-c2cc3c(cc2F)c(=O)c(C(=O)O)cn3C2CC2)cc(C)n1 ; strain or isolate: 30 strains ; measure: MIC50 ; result: 0.5 µg/mL
CO[C@H]1/C=C/O[C@@]2(C)Oc3c(C)c(O)c4c(O)c(c(/C=N/N5CCN(C/C=C/c6ccccc6)CC5)c(O)c4c3C2=O)NC(=O)/C(C)=C\C=C\[C@H](C)[C@H](O)[C@@H](C)[C@@H](O)[C@@H](C)[C@H](OC(C)=O)[C@@H]1C ; strain or isolate: N-444 ; measure: MIC ; result: 0.78 µg/mL
Cc1cc(-c2cc3c(cc2F)c(=O)c(C(=O)O)cn3C2CC2)cc(C)n1 ; strain or isolate: LV-2 ; measure: MIC ; result: 1 µg/mL
CCN(CC)CNC(=O)c1cnccn1 ; strain or isolate: ATCC49601 ; measure: MIC ; result: 128 µg/mL
CCCCCCCCCCO/N=C1\[C@H](C)CC(C)(O)[C@H](O[C@@H]2O[C@H](C)C[C@H](N(C)C)[C@H]2O)[C@@H](C)[C@H](OC2C[C@@](C)(OC)[C@@H](O)[C@H](C)O2)[C@@H](C)C(=O)O[C@H](CC)[C@@](C)(O)[C@H](O)[C@H]1C ; strain or isolate: 20092 ; measure: MIC ; result: 25 µg/mL
Cc1cccc(CSc2ncccn2)c1 ; strain or isolate: NJ211 ; measure: MIC ; result: >12.8 µg/mL
CC[C@H]1OC(=O)[C@H](C)[C@@H](O[C@H]2C[C@@](C)(OC)[C@@H](O)[C@H](C)O2)[C@H](C)[C@@H](O[C@@H]2O[C@H](C)C[C@H](N(C)C)[C@H]2O)[C@](C)(O)C[C@@H](C)CN(C)[C@H](C)[C@@H](O)[C@]1(C)O ; strain or isolate: ATCC49601 ; measure: MIC ; result: 8 µg/mL
Cc1ccccc1CSc1nc(=O)[nH]c2nc[nH]c12 ; strain or isolate: NJ211 ; measure: MIC ; result: >12.8 µg/mL
CC(=O)Nc1ccc(/C(C)=N\NC(N)=S)cc1 ; strain or isolate: 101 ; measure: MIC ; result: 0.25 µg/mL
CCO/N=C1\[C@H](C)CC(C)(O)[C@H](O[C@@H]2O[C@H](C)C[C@H](N(C)C)[C@H]2O)[C@@H](C)[C@H](OC2C[C@@](C)(OC)[C@@H](O)[C@H](C)O2)[C@@H](C)C(=O)O[C@H](CC)[C@@](C)(O)[C@H](O)[C@H]1C ; strain or isolate: 20092 ; measure: MIC ; result: >50 µg/mL

A second listing of 6 rows from above:

smiles | strain or isolate | measure | read by | result
CCCCN(C)CNC(=O)c1cnccn1 | 101 | MIC | - | 128 µg/mL
Cc1ccccc1CSc1nc(=O)[nH]c2nc[nH]c12 | NJ211 | MIC | - | >12.8 µg/mL
CCc1cc(C(N)=S)ccn1 | 31 strains | EC50 | broth dilution | >2.5 µg/mL
C/C(=N\NC(=O)c1ccncc1)c1cccc(Cl)c1 | 12592 PI | MIC | - | >20 µg/mL
CCCCSc1nc(Cl)nc2nc[nH]c12 | NJ211 | MIC | - | >12.8 µg/mL
CO/C(=N\N=C\c1cccc(F)c1)c1ccncc1 | 12592 PI | MIC | - | >10 µg/mL